Data from PMC7790382, “An immunotoxin targeting Ebola virus glycoprotein inhibits Ebola virus production from infected cells” (PLoS ONE, 2021).

Assays:
[1] = molecular target: Ebola virus (variant Yambuku, isolate Mayinga) glycoprotein GP1,2 (Ebola virus (Zaire ebolavirus), variant …, UniProt Q05320)
[2] = molecular target: Marburg virus (variant Mt. Elgon, isolate Musoke) glycoprotein GP1,2 (Marburg virus, variant Mt. Elgon, …, UniProt P35253)

| Binder | binding result ([1]; one partner purified) | binding result [1] | binding result [2] |
| --- | --- | --- | --- |
| monoclonal antibody 6D8 (antibody, V domains shown) VH: DVKLLESGGGLVQPGGSLKLSCAASGFDFSRYWMSWVRQAPGKGLEWIGEINPDSSTINYTPSLKDKFIISRDNAKNTLYLQMSKVRSEDTALYYCTRQGYGYNYWGQGTTLIVSS VL: DVLLTQIPLSLPVSLGDQASISCRSSQSIVHSNGNTYLEWYLQKPGQSPKLLIYKASNRFSGVPDRFSGSGSGTDFTLKINRVEAEDLGVYYCLQGSHVPSTFGGGTKLEIK | binds |  |  |
| 6D8-PE38 recombinant immunotoxin (scFv, V domains shown) VH: DVKLLESGGGLVQPGGSLKLSCAASGFDFSRYWMSWVRQAPGKGLEWIGEINPDSSTINYTPSLKDKFIISRDNAKNTLYLQMSKVRSEDTALYYCTRQGYGYNYWGQGTTLIVSS VL: DVLLTQIPLSLPVSLGDQASISCRSSQSIVHSNGNTYLEWYLQKPGQSPKLLIYKASNRFSGVPDRFSGSGSGTDFTLKINRVEAEDLGVYYCLQGSHVPSTFGGGTKLEIK |  | binds | no binding |

Read-outs that look alike come from different tables or passages of the source.
